PubChem BioAssay AID1224833 | University of Georgia | 2016
This is an unselected part of about 12,000 deposited reagents. Over the whole deposit, about 5,600 (46%) got an active call. 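Active calls cover z-scores past 1 in both directions, so they include lowered as well as raised rotavirus replication.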

- Purpose: 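Host factors restraining rotavirus as candidate antiviral genes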 (primary screen)
- Cell system: monkey MA104 kidney cells
- Reagents: siRNA pool against human genes, 50 nM
- Timing: 48 h knock-down before infection; read 24 h after infection
- Treatment: infection with rotavirus strain RV3 two days after transfection; infectious dose for this stage not given
- Detection: 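z-score of rotavirus antigen signal per well, from a fluorescent immunoassay, relative to non-targeting control wells on the same plate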
- Scale: z-score vs non-targeting control: higher = more rotavirus replication than with non-targeting control
- Rule for the call: In these data the active calls have z-score vs non-targeting control at about -1 or lower, or at about 1 or higher
- Calls: active = z-score beyond 1 either way; inactive = z-score within 1 of zero

| target | z-score vs non-targeting control | Call |
| --- | --- | --- |
| CEACAM4 (GeneID 1089) | -0.0324 | inactive |
| SULT1E1 (GeneID 6783) | -1.29 | active |
| ZNF229 (GeneID 7772) | -1.53 | active |
| MC2R (GeneID 4158) | -1.59 | active |
| GIT2 (GeneID 9815) | -2.7 | active |
| S100A6 (GeneID 6277) | -0.681 | inactive |
| ABRAXAS2 (GeneID 23172) | 0.0248 | inactive |
| UBTD1 (GeneID 80019) | -0.121 | inactive |
| IL22RA2 (GeneID 116379) | 0.533 | inactive |
| RHPN2 (GeneID 85415) | 0.0343 | inactive |
| GSX1 (GeneID 219409) | 0.0904 | inactive |
| UBXN4 (GeneID 23190) | -0.849 | inactive |
| S100A9 (GeneID 6280) | -0.784 | inactive |
| VAV3 (GeneID 10451) | -2.84 | active |
| DOC2B (GeneID 8447) | -0.488 | inactive |
| ZIC5 (GeneID 85416) | -0.0919 | inactive |
| ZSCAN31 (GeneID 64288) | 0.218 | inactive |
| ARF1 (GeneID 375) | 0.871 | inactive |
| NFASC (GeneID 23114) | -0.896 | inactive |
| ATF7IP2 (GeneID 80063) | -0.222 | inactive |
| CARD14 (GeneID 79092) | -3.86 | active |
| OR5P3 (GeneID 120066) | -1.17 | active |
| PIGQ (GeneID 9091) | -1.91 | active |
| APRT (GeneID 353) | -1.13 | active |
| AGL (GeneID 178) | 0.891 | inactive |
| SIX1 (GeneID 6495) | 1.86 | active |
| ALG9 (GeneID 79796) | -1.28 | active |
| CYTL1 (GeneID 54360) | -1.18 | active |
| DCTD (GeneID 1635) | -0.0109 | inactive |
| P4HA2 (GeneID 8974) | 0.815 | inactive |
| OR2AG2 (GeneID 338755) | 1.17 | active |
| ATP6V0A1 (GeneID 535) | -0.962 | inactive |
| OPALIN (GeneID 93377) | 1.14 | active |
| TBCCD1 (GeneID 55171) | -2.26 | active |
| LPO (GeneID 4025) | -1.03 | active |
| MECOM (GeneID 2122) | -0.804 | inactive |
| TANK (GeneID 10010) | 0.698 | inactive |
| SYCP3 (GeneID 50511) | 0.197 | inactive |
| ZNF345 (GeneID 25850) | -3.35 | active |
| DRC5 (GeneID 202500) | -0.954 | inactive |
| ZNF135 (GeneID 7694) | -0.796 | inactive |
| TMEM183A (GeneID 92703) | 0.391 | inactive |
| ZDHHC9 (GeneID 51114) | 0.0837 | inactive |
| ALG14 (GeneID 199857) | 1.41 | active |
| PITPNB (GeneID 23760) | -0.735 | inactive |
| RAPGEF6 (GeneID 51735) | -0.696 | inactive |
| RASGEF1A (GeneID 221002) | -1.75 | active |
| H3-3A (GeneID 3020) | -1.47 | active |
| SPATS2L (GeneID 26010) | -1 | active |
| ZNF267 (GeneID 10308) | 0.702 | inactive |
| KRTAP3-2 (GeneID 83897) | 0.534 | inactive |
| CYP2E1 (GeneID 1571) | 2.44 | active |
| NMNAT3 (GeneID 349565) | -0.597 | inactive |
| ZDHHC19 (GeneID 131540) | -0.441 | inactive |
| PNRC2 (GeneID 55629) | -0.0015 | inactive |
| TCTN2 (GeneID 79867) | 2.2 | active |
| CHCHD10 (GeneID 400916) | -1.17 | active |
| ACSL3 (GeneID 2181) | -1.13 | active |
| NXN (GeneID 64359) | -0.947 | inactive |
| TIMP2 (GeneID 7077) | -1.4 | active |
| FUNDC2 (GeneID 65991) | -0.923 | inactive |
| BNC2 (GeneID 54796) | -0.0681 | inactive |
| PPIE (GeneID 10450) | 0.803 | inactive |
| BTBD1 (GeneID 53339) | 0.302 | inactive |
| SAMD10 (GeneID 140700) | 0.224 | inactive |
| DECR1 (GeneID 1666) | -1.59 | active |
| NMB (GeneID 4828) | -1.02 | active |
| DNAI3 (GeneID 126820) | 0.123 | inactive |
| SPATA22 (GeneID 84690) | 0.679 | inactive |
| KBTBD12 (GeneID 166348) | 2.25 | active |
| NBPF1 (GeneID 55672) | 1.37 | active |
| ANKRD42 (GeneID 338699) | 2.02 | active |
| LOXL3 (GeneID 84695) | 1.28 | active |
| GRPEL1 (GeneID 80273) | -0.156 | inactive |
| SERPINB6 (GeneID 5269) | 1.31 | active |

5 consecutive reagents already listed:
| target | z-score vs non-targeting control | Call |
| --- | --- | --- |
| APRT (GeneID 353) | -1.13 | active |
| AGL (GeneID 178) | 0.891 | inactive |
| SIX1 (GeneID 6495) | 1.86 | active |
| ALG9 (GeneID 79796) | -1.28 | active |
| CYTL1 (GeneID 54360) | -1.18 | active |
